ChEMBL document CHEMBL4819124, “Folate-targeted verrucarin A reduces the number of activated macrophages in a mouse model of acute peritonitis” (Bioorg Med Chem Lett, 2021)
pIC50: −log10 of the molar value.

By UniProt entry, the sequences of proteins in these tests, tags left out. Residues count along the entry.
UniProt P15328, 25-234 limits assumed: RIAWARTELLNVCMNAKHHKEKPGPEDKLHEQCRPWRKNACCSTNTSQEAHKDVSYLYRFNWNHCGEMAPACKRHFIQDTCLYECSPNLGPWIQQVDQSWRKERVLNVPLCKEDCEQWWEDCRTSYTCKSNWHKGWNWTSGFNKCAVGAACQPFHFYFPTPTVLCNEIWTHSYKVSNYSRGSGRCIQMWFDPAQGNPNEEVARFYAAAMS
UniProt P14207, 17-230 limits assumed: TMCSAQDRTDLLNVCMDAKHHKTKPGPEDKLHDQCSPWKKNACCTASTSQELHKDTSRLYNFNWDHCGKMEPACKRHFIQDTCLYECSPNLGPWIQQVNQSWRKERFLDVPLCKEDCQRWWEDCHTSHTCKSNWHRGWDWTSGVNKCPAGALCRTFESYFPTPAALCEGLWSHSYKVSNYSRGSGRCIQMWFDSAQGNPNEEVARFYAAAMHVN

Experiments:
Folate receptor alpha = Folate receptor alpha (Homo sapiens, UniProt P15328); details: kb
Folate receptor beta = Folate receptor beta (Homo sapiens, UniProt P14207); details: raw264.7

SMILES: CC1=C[C@H]2O[C@@H]3C[C@H]4OC(=O)/C=C\C=C\C(=O)OCC[C@@H](C)[C@H](OC(=O)OCCSSC[C@H](NC(=O)[C@H](CC(=O)O)NC(=O)[C@H](CC(=O)O)NC(=O)[C@H](CCCNC(=N)N)NC(=O)[C@H](CC(=O)O)NC(=O)CC[C@H](NC(=O)c5ccc(NCc6cnc7nc(N)[nH]c(=O)c7n6)cc5)C(=O)O)C(=O)O)C(=O)OC[C@@]2(CC1)[C@]4(C)[C@]31CO1
- pIC50 (Folate receptor alpha): 8.16
- pIC50 (Folate receptor beta): 8.82
